# This is a selection; strong and weak results do not stand in their true shares. Active and inactive are the calls of the source. No stated cut-off is given here; in the data, active means growth inhibition above about 68%; inactive means the rest.
# Assay: growth inhibition of ugtP-null S. aureus, primary screen, RN4220 ugtP deletion, OD600 (AID 1259309);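 further: plate controls were untreated wells for no effect and antibiotic for full effect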
# Settings: 16 h, active compounds read high
row,SMILES,growth inhibition
1,CC(C)N1C(=O)CC2(CCN(CCOC(=O)C(O)(c3ccccc3)c3ccccc3)CC2)C1=O,inactive: 8.71%
2,CCN(N=Nc1nonc1N)c1nonc1N,inactive: 7.67%
3,CP(=O)(Nc1ccc(Cl)cc1Cl)Oc1ccccc1 (stereo not given),inactive: -2.6%
4,CCOP(=O)(Nc1ccccc1)OCC,inactive: 2.98%
5,Cc1cc(SC(NC(=O)c2ccc(F)cc2)C(Cl)(Cl)Cl)ncn1 (stereo not given),inactive: 15%
6,Cc1ccc(NP(=O)(Oc2ccccc2F)Oc2ccccc2F)nc1,inactive: 1.52%
7,COc1ccccc1OP(C)(=O)Nc1ccc(C)c(C)c1 (stereo not given),inactive: -5.5%
8,CC(C)=NN=C(N)N[N+](=O)[O-],inactive: -3.58%
9,O=C(O)c1ccccc1[As](=O)(O)O,inactive: 7.84%
10,CC(=O)Nc1ccc([As](=O)(O)O)cc1,inactive: 7.48%
11,CCCC1OP(N)(=O)OCC1CC (stereo not given),inactive: 1.59%
12,CCN(CC)CC(C)C(C)OC(=O)C(O)(c1ccccc1)c1ccccc1 (stereo not given),inactive: -0.302%
13,O=C1C(O)=C([N+](=O)[O-])C(=O)C(O)=C1[N+](=O)[O-],inactive: 2.02%
14,Cc1cc(C)cc(OP(C)(=O)Nc2cccc(C(F)(F)F)c2)c1 (stereo not given),inactive: -21.5%
15,O=P(Nc1nc2ccc(Cl)cc2s1)(c1ccccc1)c1ccccc1,inactive: -12.7%
16,CP(=O)(Nc1ccccn1)Oc1ccccc1 (stereo not given),inactive: 7.95%
17,COc1ccccc1OP(C)(=O)Nc1ccc(C)cc1C (stereo not given),inactive: 5.12%
18,CCc1ccc(OP(C)(=O)O)cc1,inactive: 16.8%
19,CC(C)CC(=O)NC(Sc1ccc(Cl)cc1)C(Cl)(Cl)Cl (stereo not given),inactive: -23%
20,O=[N+]([O-])c1cc([N+](=O)[O-])c(Nc2ccccn2)c([N+](=O)[O-])c1,active: 96.3%
21,Cc1c(NP(C)(=O)Oc2ccc(C(C)C)cc2)c(=O)n(-c2ccccc2)n1C (stereo not given),inactive: 6.38%
22,Nc1cc(N)c2nonc2c1[N+](=O)[O-],inactive: -2.7%
23,Oc1ccccc1CNc1ccccn1,inactive: 9.94%
24,O=C(NC(Sc1ccncn1)C(Cl)(Cl)Cl)c1ccccc1 (stereo not given),inactive: 5.88%
25,COc1ccc(OP(C)(=O)Nc2ccccn2)cc1 (stereo not given),inactive: -4.06%
26,COc1ccccc1OP(=O)(Nc1ccc(C)cn1)Oc1ccccc1OC,inactive: 0.142%
27,Cc1ccc(OP(=O)(Nc2nccs2)Oc2ccc(C)cc2)cc1,inactive: -4.27%
28,Clc1ccc(Cl)c(NC2=NCC(CBr)S2)c1 (stereo not given),inactive: 1.96%
29,CN(C)CCOC(=O)C(O)(c1ccccc1)C1CCCC1 (stereo not given),inactive: 2.6%
30,CN1CCCC(OC(=O)C(c2ccccc2)c2ccccc2)C1 (stereo not given),inactive: 1.8%
